Data published in ChEMBL document CHEMBL1687837, “Roles of residues Cys69, Asn104, Phe160, Gly232, Ser237, and Asp240 in extended-spectrum beta-lactamase Toho-1” (2011).

Key:
Escherichia coli [1] = assay: Activity of Escherichia coli beta-lactamase Toho-1 G232A mutant assessed as compound hydrolysis by spectrophotometry
Escherichia coli [2] = assay: Activity of Escherichia coli beta-lactamase Toho-1 C69A mutant assessed as compound hydrolysis by spectrophotometry
Escherichia coli [3] = assay: Activity of Escherichia coli beta-lactamase Toho-1 D240A mutant assessed as compound hydrolysis by spectrophotometry
Escherichia coli [4] = assay: Activity of Escherichia coli beta-lactamase Toho-1 N104A mutant assessed as compound hydrolysis by spectrophotometry

Q: For `CC1(C)S[C@@H]2[C@H](NC(=O)Cc3ccccc3)C(=O)N2[C@H]1C(=O)O`, which kcat (Escherichia coli [1]) is on record?
A: 56 s⁻¹

Q: And the kcat (Escherichia coli [2])?
A: 54 s⁻¹

Q: What about the kcat (Escherichia coli [3]) of the same compound?
A: 30 s⁻¹

Q: What about the kcat (Escherichia coli [4]) of the same compound?
A: 31 s⁻¹
